Experiments:
[1] = system: HCV replicon H/FL-Neo, genotype 1a full length construct, in Huh7 cells; experiment: Secondary HCV replicon cell assay genotype 1a, antiviral activity; assay type: cell-based, hepatitis C virus (HCV); settings: CC50/EC50
Method: (§1) Antiviral activity of test compounds was assessed in a 3-day assay using the stably-expressing HCV replicon cell line, AVA5 (sub-genomic CONI, genotype 1b) [Korba, B. E. et al. Antiviral Res. 77, 56-63 (2008); Blight et al., Science 290, 1972-1974 (2000)] maintained as sub-confluent cultures on 96-well plates as previously described [Okuse et al., Antiviral Research 65, 23-34 (2005)]. Antiviral activity was determined by blot hybridization analysis of intracellular HCV RNA (normalized to the level of cellular B-actin RNA in each culture sample) and cytotoxicity was assessed by neutral red dye uptake after 3 days of treatment. Additional studies were performed using Huh7 cells containing another HCV replicon, H/FL-Neo, a genotype la full length construct [Blight et al., J. Virol. 77, 3181-3190 (2003)]. For studies involving human serum, standard culture medium (which contains 10% fetal bovine serum) and assay conditions were maintained.
(§2) EC50, EC90 and CC50 values (±standard deviations [S.D.]) were calculated by linear regression analysis using data combined from all treated cultures (Korba, B. E. et al. Antiviral Res. 77, 56-63 (2008)). […] Selectivity index (S.I.) was calculated as CC50/EC90 for HBV assays and CC50/EC50 for HCV assays.

[2] = system: HCV replicon cell line, AVA5 (sub-genomic CONI, genotype 1b); experiment: Primary HCV replicon cell assay, antiviral activity (intracellular HCV RNA, blot hybridization); assay type: cell-based, hepatitis C virus (HCV); settings: CC50/EC50
Method: as §1, §2

[3] = system: HCV replicon cell line, AVA5 (sub-genomic CONI, genotype 1b); experiment: Secondary HCV replicon cell assay genotype 1b, antiviral activity; assay type: cell-based, hepatitis C virus (HCV); settings: CC50/EC50
Method: as §1, §2

[4] = system: HBV virion in 2.2.15 cells; experiment: HBV antiviral assay in 2.2.15 cells, virion (VIR) HBV DNA; assay type: cell-based, hepatitis B virus (HBV); settings: CC50/EC90, virion
[5] = system: HBV replication intermediates in 2.2.15 cells; experiment: HBV antiviral assay in 2.2.15 cells, replication intermediates (RI) HBV DNA; assay type: cell-based, hepatitis B virus (HBV); settings: CC50/EC90, replication intermediates

Row | SMILES | SI [2] | SI (VIR) [4] | further results
1 | O=C(Nc1cccc(F)c1)c1ccccc1O [Compound 3, N-(3-fluorophenyl)-2-hydroxybenzamide] | > 124.0 |  | SI [1]: 23.5; SI [3]: 18.3
2 | O=C(Nc1ccccc1Br)c1ccccc1O [Compound 4, N-(2-bromophenyl)-2-hydroxybenzamide] | > 17.0 |  | 
3 | O=C(Nc1ccc([N+](=O)[O-])cc1Cl)c1cc(Cl)ccc1O [Compound 6, 5-chloro-N-(2-chloro-4-nitrophenyl)-2-hydroxybenzamide] | 35.0 |  | SI [1]: 6.9; SI [3]: 6.5
4 | O=C(Nc1cccc([N+](=O)[O-])c1)c1ccccc1O [Compound 7, 2-hydroxy-N-(3-nitrophenyl)benzamide] | 31.0 |  | 
5 | Cc1cccc(C(=O)Nc2cccc(F)c2)c1O [Compound 9, N-(3-fluorophenyl)-2-hydroxy-3-methylbenzamide] | 21.0 |  | 
6 | Cc1cccc(C(=O)Nc2cccc(Cl)c2)c1O [Compound 14, N-(3-chlorophenyl)-2-hydroxy-3-methylbenzamide] | 13.0 |  | 
7 | O=C(O)c1ccccc1C(=O)Nc1ccccc1Cl [Compound 15, 2-(2-chlorophenylcarbamoyl)benzoic acid] | 27.0 |  | 
8 | Cc1cccc(C(=O)Nc2ccc(Cl)cc2)c1O [Compound 20, N-(4-chlorophenyl)-2-hydroxy-3-methylbenzamide] | > 15.0 |  | 
9 | O=C(Nc1ccccc1Cl)c1ccccc1O [Compound 23, N-(2-chlorophenyl)-2-hydroxybenzamide] | 19.0 |  | 
10 | CC(=O)Oc1ccccc1C(=O)Nc1cccc(F)c1 [Compound 24, 2-(3-fluorophenylcarbamoyl)phenyl acetate] | > 49.0 |  | 
11 | CC(=O)Oc1ccc(Cl)cc1C(=O)Nc1ccc([N+](=O)[O-])cc1Cl [Compound 25, 4-chloro-2-(2-chloro-4-nitrophenylcarbamoyl)phenyl acetate] | 43.0 |  | SI [1]: 43.0; SI [3]: 43.6
12 | O=C(Nc1cccc(C(F)(F)F)c1)c1ccccc1O [Compound 27, 2-hydroxy-N-(3-(trifluoromethyl)phenyl)benzamide] | > 28.0 |  | 
13 | CC(=O)Oc1ccccc1C(=O)Nc1cc(C(F)(F)F)cc(C(F)(F)F)c1 [Compound 34, 2-(3,5-bis(trifluoromethyl)phenylcarbamoyl)phenyl acetate] | 9.7 |  | SI [1]: 9.9; SI [3]: 10.5
14 | CC(=O)Oc1ccccc1C(=O)Nc1ccc(Cl)cc1 [Compound 38, 2-(4-chlorophenylcarbamoyl)phenyl acetate] |  | > 11.0 | 
15 | CC(=O)Oc1ccccc1C(=O)Nc1ccc(Br)cc1 [Compound 39, 2-(4-bromophenylcarbamoyl)phenyl acetate] |  | > 33.0 | SI (RI) [5]: > 15.0
16 | CC(=O)Oc1ccccc1C(=O)Nc1ccc(I)cc1 [Compound 40, 2-(4-iodophenylcarbamoyl)phenyl acetate] |  | > 83.0 | SI (RI) [5]: > 30.0
17 | O=C(Nc1cc(C(F)(F)F)ccc1Cl)c1ccccc1O [Compound 41, N-(2-chloro-5-(trifluoromethyl)phenyl)-2-hydroxybenzamide] | 65.2 | > 7.7 | SI [1]: 12.3; SI [3]: 17.5
18 | Cc1cc([N+](=O)[O-])c(Cl)cc1NC(=O)c1ccccc1O [Compound 42, N-(5-chloro-2-methyl-4-nitrophenyl)-2-hydroxybenzamide] |  | > 141.0 | SI (RI) [5]: > 48.0
19 | COC(=O)c1ccc(NC(=O)c2ccccc2OC(C)=O)cc1 [Compound 44, methyl 4-(2-acetoxybenzamido)benzoate] | 75.9 |  | SI [1]: 24.8; SI [3]: 19.4
20 | O=C(Nc1ccc(OC(F)(F)C(F)F)cc1)c1ccccc1O [Compound 49, 2-hydroxy-N-(4-(1,1,2,2-tetrafluoroethoxy)phenyl)benzamide] | 12.0 |  | 
21 | O=C(Nc1ccc(C(F)(F)F)cc1)c1ccccc1O [Compound 51, 2-hydroxy-N-(4-(trifluoromethyl)phenyl)benzamide] |  | > 4.8 | 
22 | CC(=O)Oc1ccccc1C(=O)Nc1cc(C(F)(F)F)ccc1Cl [Compound 52, 2-(2-chloro-5-(trifluoromethyl)phenylcarbamoyl)phenyl acetate] |  | 65.0 | 
23 | CC(=O)Oc1ccccc1C(=O)Nc1ccc(Cl)c([N+](=O)[O-])c1 [Compound 53, 2-(4-chloro-3-nitrophenylcarbamoyl)phenyl acetate] |  | 6.0 | 
24 | CC(=O)Oc1ccccc1C(=O)Nc1cc([N+](=O)[O-])ccc1Cl [Compound 54, 2-(2-chloro-5-nitrophenylcarbamoyl)phenyl acetate] |  | 7.6 | 
25 | CC(=O)Oc1ccccc1C(=O)Nc1ccc(F)c(F)c1 [Compound 55, 2-(3,4-difluorophenylcarbamoyl)phenyl acetate] |  | 5.5 | 
26 | O=C(Nc1ncc([N+](=O)[O-])s1)c1ccccc1O [TIZ, tizoxanide, reference compound] |  | > 172.4 | SI (RI) [5]: > 83.3

From patent US20120108592A1, “PHARMACEUTICAL COMPOSITIONS AND METHODS OF USE OF SALICYLANILIDES FOR TREATMENT OF HEPATITIS VIRUSES” (priority 2010, published 2012)
